Experimental data reported in the supplement of paper PMC9931576.
Human monoclonal antibodies against the spike receptor-binding domain (heavy:light variable regions). IC50 against pseudoviruses bearing the spike of naturally observed variants; lower = stronger; >10 µg/ml means not reached at the top dose. No active / inactive call. The stated detection limit is 0.0005 µg/ml; values near or below 0.001 µg/ml lie at the floor of the assay.

B1: BD55-6678 (protein)
chain 1: EVQLLESGGGLVQPGGSLRLSCAASGFSFNTYDMNWVRQAPGKGLEWVSVISGSGATTEYSDSVKGRFTISRDNSKNTLYLQMNSLRAEDTAVYYCAKNRRPEYDSDSMTGLDPWGQGTLVTVSS
chain 2: EIVMTQSPATLSVSPGERATLSCRASQSVSRNLAWYQQKPGQTPRLLIYGASTRATGIPASFSASGSGTEFTLTIASLRSEDFAIYYCQQYNNWPLTFGGGTKVEIK
B2: BD55-6666 (protein)
chain 1: QVQLQESGPGLVKPSETLSLTCTVSGGSISTHYWSWIRQPPGKGLEWIGFFYTSETTNYNPSLKSRVTISVDTSKNRFSLKLTSVTAADTAVYYCARHYDYVGGSHLPGTYQYYGMDVWGQGTTVTVSS
chain 2: NFMLTQPHSVSGSPGKTVTISCTANSGSIATNYVQWYQQRPGSAPTTVIYEDYHRPSGVPDRFSGSIDSSSNSASLTISGLKTEDEADYYCQSYDSTNHGVIFGGGTKLTVL
B3: BD55-6668 (protein)
chain 1: QLILQESGPGLVKPSGTLSLTCTVSGGSVSSPSFYGGWLRQPPGKGLQWMAIIDYSGITYYNPSLKSRVTVSVDTSRNRFSLKLSTVAATDTAVYYCARPRLISGFSGDWQGPTYYFDSWGQGTLVAVSS
chain 2: SNVLTQPPSVSVAPGETAWITCGGSNIGTTSVHWYQQKPGQAPVVVVFDDSGRPSAIPERFSGSHSGNSATLTISRVEAGDEAEYYCQVWDTSRDLALFGGGTKLTVL
B4: BD55-6705 (protein)
chain 1: EVQLVQSGAEVKKSGESLKISCKGSADSFTIHWIGWVRQVPGKGLEWMGVIHPSDSDTRYSPSFQGQVTISADKSTSTAYLHWSSLKASDTATYYCASREWGYYYYGMDVWGQGTTVTVSS
chain 2: DIQMTQSPSSVSASVGDRVTITCRASQGISNRLAWYQKKPGKAPKLLIYTASSVQSGVPSRFSGSGFGTDFTLTISSLQPEDFATYYCQQANTFPPTFGQGTRLEIK
B5: BD-566 (protein)
chain 1: QVQLVESGGGVVQPGRSLRLSCAASGFTFRSYGMHWVRQAPGKGLEWVAVISKDGSNKYYADSVKGRFTISRDNSKNTLYLQWNSLRAEDTAVYYCARALVVPGAPRYYYYGMDVWGQGTTVTVSS
chain 2: AIQLTQSPSSLSASVGDRVTITCRASQGISSALAWYQQRPGKAPKLLIYDASTLESGVPSRFSGSGSGTDFTLTISSLQPEDFATYYCQQFNTYPWTFGQGTKVELK
B6: BD55-6667 (protein)
chain 1: QVQLVESGGGVVQPGRSLRLACAASGFTFYSYTMHWVRQAPGKGLEWVAVISYDGNKKYYADSVKGRFTISRDNSKNTLYVQMSSLRAEDTAVYFCARELGFCGGTTCYTNDYWGQGTQVTVSS
chain 2: DIQMTQSPSSLSASVGDRVTITCRASQTISNYLNWYQQKPGKAPKLLIYAASSLQNGVPSRFSGSGSGTDFTLTISSLQLEDFATYYCQQSNSIPRTFGQGTKLEIK
B7: BD55-1312 (protein)
chain 1: QAQLVQSGTEVKKPGASVRVSCKASGYTFTGYYIHWVRQAPGQGLEWMGWINSLSGDTNYAQKFQGRVTMTRDTSISTAYMDLSRLRSDDTAVYYCARGPYYDYVYVWGSDRYAPHYFDYWGQGTLVTVSS
chain 2: DIQLTQSPSFLSASVGDRVTISCRAGQGISSYLAWYQQKPGKAPKLLIYAASTLQYGVPSRFSGSGSGTEFTLTISSLQPEDFATYYCQQLNTYPLTFGGGTKVEIK
B8: BD55-6698 (protein)
chain 1: EVQLVQSGAEVRKPGESLKISCQTSGYSFSNYGIAWVRQMPGNGLEWMGIIYPDESGTRYSPSFQGQVSISADESISTAYLQWSSLKASDTAVYYCARHGGMLRHIDWQNNGMDVWGQGTRVTVSS
chain 2: DIHMTQSPSSLSASVGDRITITCRASQGIGTYLHWYQQKPQKAPKLLIYGASTLQSGIPSRFSGGGSGTEFTLTISSLQPEDFATYYCQQSYSTPTWTFGQGTKVEVK
B9: BD55-6707 (protein)
chain 1: EVQLVESGGGLVQPGGSLRLSCAASGFSFSSYDMLWVRQVPGKGLEWISSVGTSGDTYYRDSVRGRFTISREDAKNSLFLHMNNLRSGDTAVYYCVRGDASGYYYFFDHWGQGALVTVSS
chain 2: DIQMTQSPSSLSASVGDRVTITCRAAQTIGSYLNWYQQRPGKAPRLLIYAASTLQSGVSSRFSGSGAGTEFTLTISSLQPEDFATYYCQQSYSTSTWTFGLGTKVE
B10: BD55-6691 (protein)
chain 1: QVQLVQSGAEVKKPGASVKVSCKASGYTFTNYGITWVRQAPGQGLEWMGWISIYTHNTNNAQKLQGRVTMTTDTSTRTAYMELRSLRSDDTAVYYCARVYSHEDCSGGSCHFLGYYYGMDVWGQGTTVTVSS
chain 2: QSVLTQPPSASGTPGQRVTVSCSGSSSNIGSKDGDWYQQLPGTAPKLLIYRNDQRPSGVPDRFSGSKSGTSASLVINGLRSEDEAEYYCAAWDDSLSGYVFGTGTKVTVL
B11: BD55-6692 (protein)
chain 1: EVQLVQSGAEVKKPGESLKISCKGSGYSFTSYWIGWVRQMPGKGLEWVGIIFPGDSDTSYSPSFQGQVTISADRSVSTAYLQWTSLKASDTAMYYCVKHGTPTHYGAYAGYYFDYWGQGTLVTVSS
chain 2: QSALTQPRSVSGSPGQSVTISCTGTTSDVGGYNYISWYQQHPGKAPKLIIYDVTKRPSGVPDRFSGSKSANTASLTISGLQAEDEADYYCCSYAGKYTRVFGGGTKLTVL
B12: BD55-6670 (protein)
chain 1: QVLLVQSGAEVKKPGASVKVSCKASGYTFSSSDINWVRQAAGQGLEWIGWMNPKSGNTGYARKFHGRVTMTRNTSINTAYMELSSLKSEDTAVYYCARERDAYNPGTFDFWGQGTMVTVSS
chain 2: DIQMTQSPSSLSASVGDRVTVTCRASQNIRNYLSWYQQRPGKAPNILIFEASTLQSGVPSRFSGGGSGTDFTLTINSLQPEDFATYYCQQSYSTPPTFGQGTRVEIK

target: SARS-CoV-2 Omicron BA.1 spike pseudovirus; experiment: pseudovirus neutralization IC50; higher = weaker neutralization
Description: (§1)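 Single-round VSV luciferase pseudovirus mixed with antibody dilutions for 1 h and put on Huh-7 cells for about a day; IC50 from the dose curve.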

Row | Binder | pseudovirus neutralization IC50
1 | B1 | 0.342 µg/mL
2 | B2 | > 10 µg/mL
3 | B3 | > 10 µg/mL
4 | B4 | > 10 µg/mL
5 | B5 | 1.7 µg/mL
6 | B6 | > 10 µg/mL
7 | B7 | > 10 µg/mL
8 | B8 | > 10 µg/mL
9 | B9 | > 10 µg/mL
10 | B10 | > 10 µg/mL
11 | B11 | > 10 µg/mL
12 | B12 | > 10 µg/mL

target: SARS-CoV-2 Omicron BA.2 spike pseudovirus; experiment: as above
Description: as §1

Row | Binder | pseudovirus neutralization IC50
13 | B1 | > 10 µg/mL
14 | B2 | > 10 µg/mL
15 | B3 | > 10 µg/mL
16 | B4 | > 10 µg/mL
17 | B5 | 2.64 µg/mL
18 | B6 | > 10 µg/mL
19 | B7 | > 10 µg/mL
20 | B8 | > 10 µg/mL
21 | B9 | > 10 µg/mL
22 | B10 | > 10 µg/mL
23 | B11 | > 10 µg/mL
24 | B12 | > 10 µg/mL

target: SARS-CoV-2 Omicron BA.2.75 spike pseudovirus; experiment: as above
Description: as §1

Row | Binder | pseudovirus neutralization IC50
25 | B1 | > 10 µg/mL
26 | B2 | > 10 µg/mL
27 | B3 | > 10 µg/mL
28 | B4 | > 10 µg/mL
29 | B5 | 0.932 µg/mL
30 | B6 | > 10 µg/mL
31 | B7 | > 10 µg/mL
32 | B8 | > 10 µg/mL
33 | B9 | > 10 µg/mL
34 | B10 | > 10 µg/mL
35 | B11 | > 10 µg/mL
36 | B12 | > 10 µg/mL

target: SARS-CoV-2 Omicron BA.5 spike pseudovirus; experiment: as above
Description: as §1

Row | Binder | pseudovirus neutralization IC50
37 | B1 | > 10 µg/mL
38 | B2 | > 10 µg/mL
39 | B3 | > 10 µg/mL
40 | B4 | > 10 µg/mL
41 | B5 | 7.39 µg/mL
42 | B6 | > 10 µg/mL
43 | B7 | > 10 µg/mL
44 | B8 | > 10 µg/mL
45 | B9 | > 10 µg/mL
46 | B10 | > 10 µg/mL
47 | B11 | > 10 µg/mL
48 | B12 | > 10 µg/mL

target: SARS-CoV-2 Omicron BQ.1.1 spike pseudovirus; experiment: as above
Description: as §1

Row | Binder | pseudovirus neutralization IC50
49 | B1 | > 10 µg/mL
50 | B2 | > 10 µg/mL
51 | B3 | > 10 µg/mL
52 | B4 | > 10 µg/mL
53 | B5 | > 10 µg/mL
54 | B6 | > 10 µg/mL
55 | B7 | > 10 µg/mL
56 | B8 | > 10 µg/mL
57 | B9 | > 10 µg/mL
58 | B10 | > 10 µg/mL
59 | B11 | > 10 µg/mL
60 | B12 | > 10 µg/mL

target: SARS-CoV-2 Omicron XBB spike pseudovirus; experiment: as above
Description: as §1

Row | Binder | pseudovirus neutralization IC50
61 | B1 | > 10 µg/mL
62 | B2 | > 10 µg/mL
63 | B3 | > 10 µg/mL
64 | B4 | > 10 µg/mL
65 | B5 | > 10 µg/mL
66 | B6 | > 10 µg/mL
67 | B7 | > 10 µg/mL
68 | B8 | > 10 µg/mL
69 | B9 | > 10 µg/mL
70 | B10 | > 10 µg/mL
71 | B11 | > 10 µg/mL
72 | B12 | > 10 µg/mL

target: SARS-CoV-2 early D614G spike pseudovirus; experiment: as above
Description: as §1

Row | Binder | pseudovirus neutralization IC50
73 | B1 | 0.239 µg/mL
74 | B2 | > 10 µg/mL
75 | B3 | 2.37 µg/mL
76 | B4 | > 10 µg/mL
77 | B5 | 0.0041 µg/mL
78 | B6 | 0.992 µg/mL
79 | B7 | 0.0449 µg/mL
80 | B8 | > 10 µg/mL
81 | B9 | > 10 µg/mL
82 | B10 | > 10 µg/mL
83 | B11 | > 10 µg/mL
84 | B12 | > 10 µg/mL
